Anti-infective test results gathered from many reports (values: NIAID ChemDB through PubChem).

All rows: whole-cell or culture tests; agent: Rhinovirus; endpoint: EC50

Rows are shuffled and stem from different studies.

| SMILES | cells | strain | read by | result |
|---|---|---|---|---|
| Cc1nc(-c2cc(C)c(OCCCc3cc(C4CC4)no3)c(C)c2)no1 | HeLa | Serotype 89 | cytopathic effect | 0.007 µg/mL |
| Cc1cc(CCCOc2c(C)cc(-c3noc(C(F)(F)F)n3)cc2C)on1 | OHIO HELA-I | Isolate 22 | cytopathic effect / visual reading | 0.03 µg/mL |
| Cn1c2ccccc2c2nnc(Nc3ccc(O)cc3)nc21 | WI-38 | 1059 | plaque count | 20 µg/mL |
| C=CCO/N=C/c1ccc(OCCCCN2CCN(c3cccnn3)CC2)cc1 | KB | TYPE 1A | cytopathic effect / visual reading | 0.05 µg/mL |
| CSc1nsc(-c2ccc(OCCCCOc3ccc(C#N)cc3)cc2)c1C#N | HELA-OHIO | Serotype 29 (group B) | cytopathic effect | >2 µM |
| Cn1c2ccccc2c2nnc(NCCCO)nc21 | WI-38 | 33342 | plaque count | 13 µg/mL |
| Fc1cccc(Cn2cnc3c(Nc4cccc(F)c4)nc(C(F)(F)F)nc32)c1 | M-HELA | Serotype 28 | plaque count | 4.7 µM |
| CN(C)c1nc(C(F)(F)F)nc2c1ncn2Cc1ccccc1Cl | M-HELA | Serotype 15 | plaque count | >8 µM |
| CCO/N=C/c1ccc(OCCC2CCN(c3ccc(Cl)nn3)CC2)cc1 | KB | 33342 (ICAM-1 receptor group 17) | neutral red | 0.019 µM |
| CN(C)c1nc(C(F)(F)F)nc2c1ncn2Cc1ccc(Cl)c(Cl)c1 | M-HELA | Serotype 5 | plaque count | >8 µM |
| C=CCO/N=C/c1cc(C)c(OCCCc2cc(C)no2)c(C)c1 | KB | TYPE 1A | cytopathic effect / visual reading | <0.16 µg/mL |
| CSc1nsc(-c2ccc(OCCOc3ccccc3)cc2)c1C#N | HELA-OHIO | Serotype 14 (group A) | cytopathic effect | >20 µM |
| CN(C)c1nc(C(F)(F)F)nc2c1ncn2Cc1ccc(Br)cc1 | M-HELA | Serotype 13 | plaque count | >8 µM |
| CCO/N=C/c1ccc(OCCC2CCN(c3cc(C(F)(F)F)ccn3)CC2)cc1 | KB | TYPE 1A | cytopathic effect / visual reading | 0.05 µg/mL |
| CCOC(=O)/C=C/[C@H](C[C@@H]1CCNC1=O)NC(=O)[C@H](Cc1ccc(F)cc1)NC(=O)[C@@H](NC(=O)c1cc(C)on1)C(C)C |  | Serotype 10 |  | <0.14 µM |
| CCOC(=O)/C=C/[C@H](C[C@@H]1CCNC1=O)NC(=O)COc1ccc(Cl)c(Cl)c1 | H1-HELA | Serotype 14 |  | 6.1 µM |
| CSCCCNc1nnc2c3ccccc3n(C)c2n1 | WI-38 | 1059 | plaque count | 45 µg/mL |
| CSc1nsc(-c2ccc(OCCOc3ccc([N+](=O)[O-])cc3)cc2)c1C#N | HELA-OHIO | Serotype 9 (group B) | cytopathic effect | >2 µM |
| CN(C)c1nc(C(F)(F)F)nc2c1ncn2Cc1ccccc1 | M-HELA | Serotype 1B | plaque count | 0.04 µM |
| COC(=O)c1cc(CCCOc2c(C)cc(-c3noc(C)n3)cc2C)on1 | HeLa | Serotype 50 | cytopathic effect | 0.032 µg/mL |
| CN(C)c1nc(C(F)(F)F)nc2c1ncn2Cc1ccc(Cl)c(NC=O)c1 | M-HELA | Serotype 19 | plaque count | >8 µM |
| CCOC(=O)/C=C/[C@H](C[C@@H]1CCNC1=O)NC(=O)Nc1cc(OC)cc(OC)c1 | H1-HELA | Serotype 14 | XTT | >10 µM |
| CN=C(c1ccccc1)c1ccc2nc(N)n(S(=O)(=O)C(C)C)c2c1 | HeLa | TYPE 2 | cytopathic effect / XTT | 0.07 µg/mL |
| CO/N=C/c1ccc(OCCC2CCN(c3ccc(Cl)nn3)CC2)cc1 | KB | TYPE 1A | cytopathic effect / visual reading | <0.0032 µg/mL |
| Cc1cc(CCCCCOc2c(Cl)cc(C3=NCCO3)cc2Cl)on1 | HeLa | TYPE 54 | plaque count | 0.65 µg/mL |
| CSc1nsc(-c2ccc(OC(C)(C)C)cc2)c1C#N | HELA-OHIO | Serotype 72 (group A) | cytopathic effect | >40 µM |
| CO/N=C/c1cc(C)c(OCCC2CCN(c3ccc(Cl)nn3)CC2)c(C)c1 | MRC-5 | TYPE 2 | cytopathic effect / visual reading | 0.09 µg/mL |
| Cn1c2ccccc2c2nnc(SCCN3CCOCC3)nc21 | WI-38 | 2060 | plaque count | 20 µg/mL |
| CSc1nsc(-c2ccc(OCCCOc3ccc([N+](=O)[O-])cc3)cc2)c1C#N | HELA-OHIO | Serotype 89 (group B) | cytopathic effect | >1 µM |
| CCOC(=O)/C=C/[C@H](CCC(N)=O)NC(=O)[C@H](Cc1ccc(F)cc1)N(C)C(=O)[C@H](CC(C)C)NC(=O)c1cc(C)on1 | H1-HELA | Serotype 10 | XTT | 0.14 µM |
| CCOC(=O)c1ccc(OCCC2CCN(c3ccc(C)nn3)CC2)cc1 | HELA-OHIO | Serotype 42 (group A) | cytopathic effect | >19 µM |
| CCOC(=O)/C=C/[C@H](CCC(N)=O)NC(=O)NC(CC(C)C)C(=O)OCC | H1-HELA | Serotype 14 |  | 19.6 µM |
| CN[C@H]1C[C@@H](n2cnc3c(N)ncnc32)[C@H](O)[C@@H]1O | HFF | TYPE 2 |  | >100 µg/mL |
| CO/N=C/c1ccc(OC)c(OCCC2CCN(c3ccc(Cl)nn3)CC2)c1 | MRC-5 | TYPE 2 | cytopathic effect / visual reading | >1 µg/mL |
| OCCCNc1nnc2c3ccccc3n(Cc3ccccc3)c2n1 | WI-38 | 1059 | plaque count | 4 µg/mL |
| CSc1nsc(-c2ccc(OCCCc3ccccc3)cc2)c1C#N | HELA-OHIO | Serotype 42 (group A) | cytopathic effect | >20 µM |
| Fc1ccc(Cn2cnc3c(Nc4cccc(F)c4)nc(C(F)(F)F)nc32)cc1 | M-HELA | Serotype 2 | plaque count | 6.7 µM |
| COC(=O)[C@H](Cc1cccc2ccccc12)Nc1nc2ccc(NC(=O)OC(C)(C)C)c(C)c2c(=O)o1 | H1-HELA | Serotype 1A | XTT | 0.3 µM |
| CCO/N=C/c1cc(C)c(OCCCc2cc(C)no2)c(C)c1 | MRC-5 | TYPE 2 | cytopathic effect / visual reading | <0.05 µg/mL |
| CSc1nsc(-c2ccc(OCCCOc3ccc(C#N)cc3)cc2)c1C#N | HELA-OHIO | Serotype 15 (group B) | cytopathic effect | >2 µM |
| Cc1cc(C(=O)N[C@H](C(=O)C[C@@H](Cc2ccc(F)cc2)C(=O)N[C@H](/C=C2\CCOC2=O)C[C@@H]2CCNC2=O)C(C)C)no1 | H1-HELA | Serotype 14 | XTT | 0.1 µM |
| Cc1ccc(Cn2cnc3c(N(C)C)nc(C(F)(F)F)nc32)c(C)c1 | M-HELA | Serotype 13 | plaque count | >8 µM |
| CSc1nsc(-c2ccccc2)c1C#N | HELA-OHIO | Serotype 14 (group A) | cytopathic effect | >80 µM |
| COCc1cc(CCCOc2c(Cl)cc(-c3noc(C)n3)cc2Cl)on1 | HeLa | Serotype 67 | cytopathic effect | 0.067 µg/mL |
| CCOC(=O)/C=C/[C@H](C[C@@H]1CCNC1=O)NC(=O)[C@H](Cc1ccc(F)cc1)NC(=O)[C@@H](NC(=O)c1cc(C)on1)C(C)(C)C | H1-HELA | Serotype 13 | XTT | 0.03 µM |
| Cc1ccccc1Cn1cnc2c(N(C)C)nc(C(F)(F)F)nc21 | M-HELA | Serotype 4 | plaque count | >8 µM |
| CCOC(=O)c1ccc(OCCCCOc2ccc(-c3snc(SC)c3C#N)cc2)cc1 | HELA-OHIO | Serotype 29 (group B) | cytopathic effect | >2 µM |
| CCOC(=O)c1ccc(OCCC2CCN(c3ccc(C)nn3)CC2)cc1 |  | Serotype 14 |  | <0.13 µM |
| Cn1c2ccccc2c2nnc(NCCCCO)nc21 | WI-38 | HGP | plaque count | 10 µg/mL |

Repeating the first 5 entries:

SMILES | cells | strain | read by | result
Cc1nc(-c2cc(C)c(OCCCc3cc(C4CC4)no3)c(C)c2)no1 | HeLa | Serotype 89 | cytopathic effect | 0.007 µg/mL
Cc1cc(CCCOc2c(C)cc(-c3noc(C(F)(F)F)n3)cc2C)on1 | OHIO HELA-I | Isolate 22 | cytopathic effect / visual reading | 0.03 µg/mL
Cn1c2ccccc2c2nnc(Nc3ccc(O)cc3)nc21 | WI-38 | 1059 | plaque count | 20 µg/mL
C=CCO/N=C/c1ccc(OCCCCN2CCN(c3cccnn3)CC2)cc1 | KB | TYPE 1A | cytopathic effect / visual reading | 0.05 µg/mL
CSc1nsc(-c2ccc(OCCCCOc3ccc(C#N)cc3)cc2)c1C#N | HELA-OHIO | Serotype 29 (group B) | cytopathic effect | >2 µM

ECn: concentration that inhibits the pathogen or its effect by n%. An empty or dashed field is not shown.